In patent US20260069656A1, “Nutritive Polypeptides and Formulations Thereof, and Methods of Production and Use Thereof” (Axcella Health Inc., priority 2013, published 2026):

Experiment: Bacillus subtilis secretion library screening, secreted protein by chip electrophoresis
Settings: for Secreted protein SEQID-00103: leader peptide fused to SEQID-00103, B. subtilis culture supernatant; for Secreted protein SEQID-00105: leader peptide fused to SEQID-00105, B. subtilis culture supernatant; for Secreted protein SEQID-298: leader peptide fused to SEQID-298, B. subtilis culture supernatant; for Secreted protein SEQID-00338: leader peptide fused to SEQID-00338, B. subtilis culture supernatant; for Secreted protein SEQID-00341: leader peptide fused to SEQID-00341, B. subtilis culture supernatant; for Secreted protein SEQID-00352: leader peptide fused to SEQID-00352, B. subtilis culture supernatant

In the case of “3921 (MKKKKTWKRFLHFSSAALAAGLIFTSAAPAEA; listed as Bacillus subtilis) [compound 3921]”, the “Secreted protein SEQID-00103” value was 12.1 mg/1/OD, the “Secreted protein SEQID-00105” value was 135.7 mg/1/OD and the “Secreted protein SEQID-298” value was 4.4 mg/1/OD. For the same substance, the “Secreted protein SEQID-00338” value was 9.5 mg/1/OD, the “Secreted protein SEQID-00341” value was 148.14 mg/1/OD and the “Secreted protein, Other SEQ IDs: SEQID-00405” value (leader peptide fused to SEQID-00405, B. subtilis culture supernatant) was 3.1 mg/1/OD.

For “3922 (MKRSISIFITCLLITLLTMGGMIASPASA; listed as Bacillus subtilis) [compound 3922]”, the “Secreted protein SEQID-00103” value was 12.1 mg/1/OD, the “Secreted protein SEQID-00105” value was 73.6 mg/1/OD and the “Secreted protein SEQID-298” value was 7.8 mg/1/OD. The “Secreted protein SEQID-00341” value was 33.9 mg/1/OD and the “Secreted protein SEQID-00352” value was 2.7 mg/1/OD.

With “3923 (MRKKTKNRLISSVLSTVVISSLLFPGAAGA; listed as Bacillus subtilis) [compound 3923]” the “Secreted protein SEQID-00341” value was 40.4 mg/1/OD.

In the case of “3924 (MRKNRILALFVLSLGLLSFMVTPVSA; listed as Bacillus subtilis) [compound 3924]”, the “Secreted protein SEQID-00338” value was 5.7 mg/1/OD, the “Secreted protein SEQID-00341” value was 41.9 mg/1/OD and the “Secreted protein, Other SEQ IDs: SEQID-00398” value (leader peptide fused to SEQID-00398, B. subtilis culture supernatant) was 5.5 mg/1/OD.

With “3926 (MKSCKQLIVCSLAAILLLIPSVSFA; listed as Bacillus subtilis) [compound 3926]” the “Secreted protein SEQID-00338” value was 3.4 mg/1/OD.

With “3927 (MKKKLAAGLTASAIVGTTLVVTPAEA; listed as Bacillus subtilis) [compound 3927]” the “Secreted protein SEQID-00103” value was 14.8 mg/1/OD.

In the case of “3928 (MKLVPRFRKQWFAYLTVLCLALAAAVSFGVPAKA; listed as Bacillus subtilis) [compound 3928]”, the “Secreted protein SEQID-298” value was 10.8 mg/1/OD.

In the case of “3929 (MRNLTKTSLLLAGLCTAAQMVFVTHASA; listed as Bacillus subtilis) [compound 3929]”, the “Secreted protein SEQID-00341” value was 37.5 mg/1/OD.

In the case of “3930 (MKRLCLWFTVFSLFLVLLPGKALG; listed as Bacillus subtilis) [compound 3930]”, the “Secreted protein SEQID-00341” value was 64.4 mg/1/OD.

With “3931 (MKLKTKASIKFGICVGLLCLSITGFTPFFNSTHAEA; listed as Bacillus subtilis) [compound 3931]” the “Secreted protein SEQID-00352” value was 2.8 mg/1/OD.

With “3932 (MKKFPKKLLPIAVLSSIAFSSLASGSVPEASA; listed as Bacillus subtilis) [compound 3932]” the “Secreted protein SEQID-298” value was 7.9 mg/1/OD.

For “3933 (MKKRKRRNFKRFIAAFLVLALMISLVPADVLA; listed as Bacillus subtilis) [compound 3933]”, the “Secreted protein SEQID-00338” value was 7 mg/1/OD and the “Secreted protein SEQID-00352” value was 2.14 mg/1/OD.

With “3934 (MFKFKKNFLVGLSAALMSISLFSATASA; listed as Bacillus subtilis) [compound 3934]” the “Secreted protein SEQID-00103” value was 13.4 mg/1/OD, the “Secreted protein SEQID-00105” value was 114.4 mg/1/OD and the “Secreted protein SEQID-298” value was 4.3 mg/1/OD. For the same substance, the “Secreted protein SEQID-00338” value was 9.8 mg/1/OD and the “Secreted protein SEQID-00341” value was 83.3 mg/1/OD.

In the case of “3935 (MKRMIVRMTLPLLIVCLAFSSFSASARA; listed as Bacillus subtilis) [compound 3935]”, the “Secreted protein SEQID-00352” value was 0.69 mg/1/OD.

In the case of “3936 (MKRITINIITMFIAAAVISLTGTAEA; listed as Bacillus subtilis) [compound 3936]”, the “Secreted protein SEQID-00341” value was 61.7 mg/1/OD.

For “3937 (MRKKRVITCVMAASLTLGSLLPAGYASA; listed as Bacillus subtilis) [compound 3937]”, the “Secreted protein SEQID-00105” value was 135.6 mg/1/OD.

In the case of “3938 (MKKKQVMLALTAAAGLGLTALHSAPAAKA; listed as Bacillus subtilis) [compound 3938]”, the “Secreted protein SEQID-00103” value was 20.8 mg/1/OD.

For “3939 (MKWMCSICCAAVLLAGGAAQA; listed as Bacillus subtilis) [compound 3939]”, the “Secreted protein SEQID-00103” value was 9.4 mg/1/OD.

With “3940 (MKKELLASLVLCLSLSPLVSTNEVFA; listed as Bacillus subtilis) [compound 3940]” the “Secreted protein SEQID-00105” value was 83.4 mg/1/OD and the “Secreted protein SEQID-00341” value was 80.2 mg/1/OD.

For “3941 (MNFKKTVVSALSISALALSVSGVASA; listed as Bacillus subtilis) [compound 3941]”, the “Secreted protein SEQID-00103” value was 14.3 mg/1/OD and the “Secreted protein SEQID-00105” value was 152.7 mg/1/OD.

With “3942 (MKRLFMKASLVLFAVVFVFAVKGAPAKA; listed as Bacillus subtilis) [compound 3942]” the “Secreted protein SEQID-00103” value was 20 mg/1/OD.

With “3943 (MLKKKWMVGLLAGCLAAGGFSYNAFA; listed as Bacillus subtilis) [compound 3943]” the “Secreted protein SEQID-00341” value was 132.5 mg/1/OD and the “Secreted protein SEQID-00352” value was 2.23 mg/1/OD.

In the case of “3944 (MKKIGLLFMLCLAALFTIGFPAQQADA; listed as Bacillus subtilis) [compound 3944]”, the “Secreted protein SEQID-00103” value was 13.3 mg/1/OD.

With “3945 (MRFTKVVGFLSVLGLAAVFPLTAQA; listed as Bacillus subtilis) [compound 3945]” the “Secreted protein SEQID-00105” value was 124.3 mg/1/OD.

For “3946 (MKQGKFSVFLILLLMLTLVVAPKGKAEA; listed as Bacillus subtilis) [compound 3946]”, the “Secreted protein SEQID-298” value was 3.9 mg/1/OD.

In the case of “3947 (MTLTKLKMLSMLTVMIASLFIFSSQALA; listed as Bacillus subtilis) [compound 3947]”, the “Secreted protein SEQID-00338” value was 6.3 mg/1/OD.

For “3948 (MKRKLLSSLAISALSLGLLVSAPTASFAAE; listed as Bacillus subtilis) [compound 3948]”, the “Secreted protein, Other SEQ IDs: SEQID-00404” value (leader peptide fused to SEQID-00404, B. subtilis culture supernatant) was 2.5 mg/1/OD.

In the case of “3949 (MTKKAWFLPLVCVLLISGWLAPAASASA; listed as Bacillus subtilis) [compound 3949]”, the “Secreted protein SEQID-00352” value was 2.26 mg/1/OD.

In the case of “3950 (MRKSLITLGLASVIGTSSFLIPFTSKTASA; listed as Bacillus subtilis) [compound 3950]”, the “Secreted protein SEQID-00103” value was 14.6 mg/1/OD and the “Secreted protein SEQID-00105” value was 124.4 mg/1/OD.

With “3951 (MKRIRIPMTLALGAALTIAPLSFASA; listed as Bacillus subtilis) [compound 3951]” the “Secreted protein SEQID-00103” value was 17.7 mg/1/OD.

With “3952 (MRKYTVIASILLSFLSVLSGG; listed as Bacillus subtilis) [compound 3952]” the “Secreted protein SEQID-00103” value was 26.2 mg/1/OD.

With “3953 (MKKLLTVMTMAVLTAGTLLLPAQSVTPAAHA; listed as Bacillus subtilis) [compound 3953]” the “Secreted protein, Other SEQ IDs: SEQID-403” value (leader peptide fused to SEQID-403, B. subtilis culture supernatant) was 3.4 mg/1/OD.

With “3954 (MNKPTKLFSTLALAAGMTAAAAGGAGTIHA; listed as Bacillus subtilis) [compound 3954]” the “Secreted protein SEQID-00105” value was 131 mg/1/OD.

For “3955 (MVKSFRMKALIAGAAVAAAVSAGAVSDVPAAKVLQPTAAYA; listed as Bacillus subtilis) [compound 3955]”, the “Secreted protein SEQID-00352” value was 3.7 mg/1/OD.

With “3956 (MKWNNMLKAAGIAVLLFSVFAYAAPSLKAVQA; listed as Bacillus subtilis) [compound 3956]” the “Secreted protein SEQID-00338” value was 7.9 mg/1/OD, the “Secreted protein SEQID-00341” value was 41.5 mg/1/OD and the “Secreted protein SEQID-00352” value was 0.95 mg/1/OD.
